A mixed list of measured activities; the numbers were collected in NIAID ChemDB.

All rows: whole-cell or culture tests; organism: HIV-1; cells: MT-4; read-out: EC50

Two numbers with a dash give a range or band.

compound,strain,changes,method,result
CC1(C)CN=C(c2ccc3nc(Cc4nc5ccc(C6=NCC(C)(C)N6)cc5[nH]4)[nH]c3c2)N1,IIIB,,cytopathic effect / propidium iodide,6.5 µM
C=C1CN(S(=O)(=O)c2ccc(C)cc2)CCCN(Cc2ccccc2)CCCN(S(=O)(=O)c2ccc(C)cc2)C1,RF,,cytopathic effect,1.5 µM
Cn1c([S-])nc2nc(-c3ccccc3)c(-c3ccccc3)nc2c1=O.[Cl][Pt+2][Cl],IIIB,,cytopathic effect,>2.23 µg/mL
Nc1ncnc2c1ccn2[C@H]1CC[C@@H](CO)C1,,,cytopathic effect / MTS,>500 µM
O=C(NCCCc1cn([C@H]2C=C[C@@H](CO)O2)c(=O)[nH]c1=O)C(F)(F)F,IIIB,,,>100 µM
CC1=C(/C=C/C=C/C=C/C=C/C(=O)Nc2ccn([C@H]3CS[C@@H](CO)O3)c(=O)n2)C(C)(C)CCC1,BRU,,syncytia,<100 µM
N#CC1=CC2Nc3ccccc3C2N(c2ccc(Br)cc2)C1=O,LAI,,cytopathic effect / MTT,1–32 µM
C=Cc1cn([C@H]2C[C@H](F)[C@@H](CO)O2)c(=O)[nH]c1=O,IIIB,,cytopathic effect,2.4 µM
CCN(CC)C(=O)c1cccn1S(=O)(=O)c1cc(Cl)ccc1N,IIIB,,cytopathic effect / MTT,>146 µM
C#C[C@]1(O)[C@H]2OC[C@]1(CO)O[C@H]2n1ccc(=O)[nH]c1=O,IIIB,,antigen,>100 µM
S=C(NCCN1CCNCC1)Nc1ccc(Br)cn1,IIIB,,RT activity,>100 µM
COC(=O)Cc1cn([C@@H]2C=C[C@H](CO)O2)c(=O)[nH]c1=O,IIIB,,,>100 µM
Cc1cccc(-c2nnc3sc(CC45CC6CC(CC(C6)C4)C5)nn23)c1,IIIB,,cytopathic effect / MTT,>10.9 µg/mL
Cc1ccc(-c2cc(-c3ccco3)c(C#N)c(=O)n2[C@@H]2O[C@H](CO)[C@@H](O)[C@H](O)[C@H]2O)cc1,,,cytopathic effect / XTT,8.03 µM
CCC(C)OC(=O)c1cccn1S(=O)(=O)c1cc(Cl)ccc1N,IIIB,,cytopathic effect / MTT,0.9 µM
Cc1cn([C@H]2C=C[C@@H](CO)O2)c(=O)n(CCCN2CCN(CCNC(=S)Nc3ccc(Br)cn3)CC2)c1=O,IIIB,,RT activity,>100 µM
Cc1cn([C@H]2C[C@H](F)[C@@H](CO)O2)c(=O)[nH]c1=O,IIIB,,cytopathic effect,0.03 µM
c1cc2nc(Cc3nc4ccc(C5=NCCCC5)cc4[nH]3)[nH]c2cc1C1=NCCCC1,IIIB,,cytopathic effect / propidium iodide,90.8 µM
COC(=O)[C@H](C)NP(=O)(OC[C@H]1C=C[C@@H](n2cc(CC(=O)NCCCCCCNC(=O)C(F)(F)F)c(=O)[nH]c2=O)O1)Oc1ccccc1,IIIB,,,>100 µM
CC1=C(CCC(=O)O)c2cc3nc(cc4[nH]c(cc5[nH]c(cc1n2)c(C)c5CCC(=O)O)c(CCC(=O)O)c4C)C(CCC(=O)O)=C3C,LAV,,cytopathic effect,<10 µg/mL
C#C[C@]1(O)[C@@H](O)[C@H](n2ccc(N)nc2=O)OC1(CO)CO,IIIB,,antigen,>100 µM
O=C(O)C(Cc1ccc(O)c(O)c1)OC(O)/C=C/C1=CC(O)C(O)C=C1,IIIB,,MTT,>55 µM
COc1ccc(/C(C)=N/NC(=O)c2ccncc2)c(OC)c1,IIIB,,MTT,>12 µM
CCC(C)OC(=O)c1cccn1S(=O)(=O)c1cc(Cl)ccc1[N+](=O)[O-],IIIB,,cytopathic effect / MTT,≥32.5 µM
CC(=O)OC[C@H]1O[C@@H](n2ccc(N)nc2=O)CS1,BRU,,syncytia,<100 µM
Clc1cccc(-c2nnc3sc(CC45CC6CC(CC(C6)C4)C5)nn23)c1,IIIB,,cytopathic effect / MTT,>125 µg/mL
C=Cc1c(C)c2cc3[nH]c(cc4nc(cc5nc(cc1[nH]2)C(C)=C5CCCO)C(CCCO)=C4C)c(C)c3C=C,LAV,,cytopathic effect,<10 µg/mL
CC(=O)Nc1ccn([C@H]2CS[C@@H](CO)O2)c(=O)n1,BRU,,syncytia,0.1 µM
Fc1ccc(-c2nnc3sc(CC45CC6CC(CC(C6)C4)C5)nn23)cc1,IIIB,,cytopathic effect / MTT,>65.33 µg/mL
COc1cc(/C=N/n2sc3ccccc3c2=O)ccc1O,,Y181C,MTT,>15 µM
COc1cc(/C=C/C#N)cc(OC)c1-c1cccc2c(N)nc(Nc3ccc(C#N)cc3)nc12,HXB2,K103N,cytopathic effect / luminescence,0.0015 µM
CCNC(=O)c1cccn1S(=O)(=O)c1cc(Cl)ccc1[N+](=O)[O-],IIIB,,cytopathic effect / MTT,>16.6 µM
O=c1[nH]c(=O)n([C@@H]2C=C[C@H](CO)O2)cc1CCO,IIIB,,,>100 µM
Cc1cn([C@H]2C[C@H](F)[C@@H](CO)O2)c(=O)nc1NO,IIIB,,cytopathic effect,110 µM
C=Cc1c(C)c2cc3nc(c(CC(=O)O)c4nc(cc5[nH]c(cc1[nH]2)c(C)c5CC)C(C)=C4C(=O)O)C(CCC(=O)O)=C3C,LAV,,cytopathic effect,<10 µg/mL
C#C[C@@]1(OC(C)=O)[C@@H]([C@@H](C)OC(C)=O)O[C@@H](n2ccc(NC(=O)c3ccccc3)nc2=O)[C@@H]1OC(C)=O,IIIB,,antigen,>100 µM
CCC1=C(C)C2=NC1=CC1=C(C)C3=C(O)CC(=C4N=C(C=c5[nH]c(c(CC)c5C)=C2)C(C)=C4CCC(=O)O)C3=N1,LAV,,cytopathic effect,<10 µg/mL
COC(=O)Cc1cn([C@H]2C=C[C@@H](CO)O2)c(=O)[nH]c1=O,IIIB,,,>1000 µM
CC1(C)[C@@H](O[C@H]2O[C@H](C(=O)O)[C@@H](O)[C@H](O)[C@H]2O[C@@H]2O[C@H](C(=O)O)[C@@H](O)[C@H](O)[C@H]2O)CC[C@]2(C)[C@H]3C(=O)C=C4[C@@H]5C[C@@](C)(C(=O)O)CC[C@]5(C)CC[C@@]4(C)[C@]3(C)CC[C@@H]12,,,cytopathic effect,150 µM
COC(=O)[C@H](Cc1ccccc1)NP(=O)(OC[C@H]1C=C[C@@H](n2ccc3c(N)ncnc32)C1)Oc1ccccc1,,,cytopathic effect / MTS,0.3 µM
O=C1C=CC2Nc3ccccc3C2N1c1ccc([N+](=O)[O-])cc1,LAI,,cytopathic effect / MTT,1–32 µM
O=c1ccn([C@H]2C=C[C@@H](CO)O2)c(=O)n1C/C=C/CN1CCN(CCNC(=S)Nc2ccc(Br)cn2)CC1,IIIB,,RT activity,>100 µM
COC(=O)[C@H](C)NP(=O)(OC[C@@H]1C=C[C@H](n2cc(CC(=O)NCCCCCCCCNC(=O)C(F)(F)F)c(=O)[nH]c2=O)O1)Oc1ccccc1,IIIB,,,>100 µM
C#C[C@@]1(O)[C@@H](CO)O[C@@H](n2ccc(N)nc2=O)[C@@H]1O,IIIB,,antigen,>100 µM
C[C@H](NP(=O)(OC[C@H]1C=C[C@@H](n2cnc3c(N)ncnc32)C1)Oc1ccccc1)C(=O)OC(C)(C)C,,,cytopathic effect / MTS,8.2 µM
CCOC(=O)c1ccn(S(=O)(=O)c2cc(Cl)ccc2N)c1,IIIB,,cytopathic effect / MTT,15 µM
Cc1ccc2sn(/N=C/c3ccccc3Cl)c(=O)c2c1,,K103N + Y181C,MTT,>100 µM
NC(=NC1CC1)c1ccc2nc(Cc3nc4ccc(C(N)=NC5CC5)cc4[nH]3)[nH]c2c1,IIIB,,cytopathic effect / propidium iodide,20.6 µM
C#C[C@@]1(O)[C@@H]([C@H](O)CO)O[C@@H](n2ccc(=O)[nH]c2=O)[C@@H]1O,IIIB,,antigen,>100 µM
Fc1ccccc1-c1nnc2sc(CC34CC5CC(CC(C5)C3)C4)nn12,IIIB,,cytopathic effect / MTT,>14.9 µg/mL
NC(=O)c1cccn1S(=O)(=O)c1ccccc1[N+](=O)[O-],IIIB,,cytopathic effect / MTT,>200 µM
O=c1c2ccccc2sn1/N=C/c1cccc(O)c1,,Y181C,MTT,>15 µM
O=c1ccn([C@H]2C=C[C@@H](CO)O2)c(=O)n1CCCCN1CCN(CCNC(=S)Nc2ccc(Br)cn2)CC1,IIIB,,RT activity,>100 µM
CCOC(=O)[C@H](C)NC(O)(Oc1ccccc1)Oc1nc(N(C)C)nc(C(C)c2c(F)cccc2F)c1C,,K103N + Y181C,MTT,>40 µM
CCn1cc(C(=O)O)c(=O)c2cc(F)c(N3CCN(c4ccccc4OC)CC3)c(OC(F)F)c21,,,cytopathic effect / MTT,0.64 µM
CC(C)COC(=O)c1cccn1S(=O)(=O)c1cc(Cl)ccc1N,IIIB,,cytopathic effect / MTT,1.6 µM
C#C[C@@]12OC[C@]1(CO)O[C@@H](n1ccc(=O)[nH]c1=O)[C@@H]2O,IIIB,,antigen,>100 µM
Cl.O=C(O)CCC1=C(CC(=O)O)c2cc3nc(cc4[nH]c(cc5[nH]c(cc1n2)c(CC(=O)O)c5CCC(=O)O)c(CC(=O)O)c4CCC(=O)O)C(CC(=O)O)=C3CC(=O)O,LAV,,cytopathic effect,<10 µg/mL
Cc1ccc2sn(/N=C/c3ccc4c(c3)OCO4)c(=O)c2c1,,,MTT,33 µM
Cc1cnc(=O)n([C@H]2C[C@H](F)[C@@H](CO)O2)c1,IIIB,,cytopathic effect,7 µM
N#CC1=CC2C(c3ccccc3N2Cc2cccnc2)N(c2ccc([N+](=O)[O-])cc2)C1=O,LAI,,cytopathic effect / MTT,1–32 µM
C=Cc1c(C)c2cc3[nH]c(cc4nc(cc5nc(cc1[nH]2)C(C)=C5CCC(=O)OC)C(CCC(=O)OC)=C4C)c(C)c3C=C,LAV,,cytopathic effect,<10 µg/mL
Cc1ccc2sn(/N=C/c3ccccc3F)c(=O)c2c1,,,MTT,>18 µM
COC(=O)[C@H](C)NP(=O)(OC[C@H]1C=C[C@@H](n2cc(CC(=O)NCCCCCCCCCCCCNC(=O)C(F)(F)F)c(=O)[nH]c2=O)O1)Oc1ccccc1,IIIB,,,10 µM

5 of the rows above, restated:

compound | strain | changes | method | result
Cc1ccc2sn(/N=C/c3ccccc3Cl)c(=O)c2c1 |  | K103N + Y181C | MTT | >100 µM
Cc1cccc(-c2nnc3sc(CC45CC6CC(CC(C6)C4)C5)nn23)c1 | IIIB |  | cytopathic effect / MTT | >10.9 µg/mL
CCOC(=O)[C@H](C)NC(O)(Oc1ccccc1)Oc1nc(N(C)C)nc(C(C)c2c(F)cccc2F)c1C |  | K103N + Y181C | MTT | >40 µM
CCN(CC)C(=O)c1cccn1S(=O)(=O)c1cc(Cl)ccc1N | IIIB |  | cytopathic effect / MTT | >146 µM
N#CC1=CC2Nc3ccccc3C2N(c2ccc(Br)cc2)C1=O | LAI |  | cytopathic effect / MTT | 1–32 µM

ECn: concentration that inhibits the pathogen or its effect by n%. Rows are shuffled and stem from different studies. Blank or dashed fields: not listed here.